Where two headings read alike, the source gives them in different places.

From patent US20070190523A1 (priority 2002, published 2007) come the findings set out here.

The assay deals with mutant HIV-1 with M46F/I47V/I50V mutations (I50V #1). It is filed as cell-based.
The mark [1] stands for this setting: fold difference in EC50 vs wild type, class symbols.

In the case of `CCOP(=O)(COc1ccc2c(c1)CCN(CC(NC(=O)OC1COC3OCCC13)C(O)CN(CC(C)C)S(=O)(=O)c1ccc(OC)cc1)C2)OCC` (stereo not shown), the “I50V (#1) fold change” value under setting [1] is “+ (>3 to ≦10)”. `CCOC(=O)COP(=O)(COc1ccc(CC(NC(=O)OC2COC3OCCC23)C(O)CN(CC(C)C)S(=O)(=O)c2ccc(OC)cc2)cc1)OCC(=O)OCC` (stereo not shown) [drawing 607 R1=Glc-Et R2=Glc-Et]: the “I50V (#1) fold change” value under setting [1] is listed as “− (≦3)”. On to `CCOC(=O)C(C)OP(=O)(Cc1ccc2c(c1)CCN(C[C@H](NC(=O)O[C@H]1CO[C@H]3OCC[C@H]31)[C@H](O)CN(CC(C)C)S(=O)(=O)c1ccc(OC)cc1)C2)Oc1ccccc1` (stereo partly shown), for which the “I50V (#1) fold change” value (I50V (#1) mutant) is listed as “++ (>10 to ≦30)”. As to `COc1ccc(S(=O)(=O)N(CC(C)C)CC(O)C(CNc2ccc(CP(=O)(O)O)cc2)NC(=O)OC2COC3OCCC23)cc1` (stereo not shown), the “I50V (#1) fold change” value under setting [1] is reported as “+ (>3 to ≦10)”.
